# Source: US5571892A (priority 1990, dated 1996)
# Assay: general procedure: Fmoc solid-phase peptide synthesis; DMBHA resin; DIPCDI-HOBt
# Conditions: whole synthesis, based on the protecting group-protected peptide (A) resin, scale 0.2 mmole
substance,measurement,value
RWCYRKCYRGICYRKCR-NH2 (cysteine pairing not given here),isolated yield,27%

# Where no end group is shown, it is not given here.
